Results of unrelated studies side by side (data: NIAID ChemDB).

Shared fields: whole-cell or culture tests; agent: Herpes simplex virus 2; method: plaque count; endpoint: EC50

Neighbouring rows are from separate reports. ECn is the concentration giving n% inhibition of infection, replication or growth.

CC(=O)c1c(-c2ccc(C#N)cc2)cc2ccccn12 ; cells: VERO ; strain: 186 ; value: 40 µM
O=c1[nH]c(=O)n([C@H]2C[C@H](O)[C@@H](CO)O2)cc1I ; cells: HELF ; strain: MS ; value: 1.95 µg/mL
Nc1ccn(C[C@@H](CO)OCP(=O)(O)O)c(=O)n1 ; cells: HFF ; strain: MS ; value: 1.2 µg/mL
O=c1[nH]c(=O)n([C@H]2C[C@H](O)[C@@H](CO)O2)cc1/C=C/Br ; cells: VERO ; strain: MS ; value: 5.8 µM
Fc1ccc2cc(-c3ccccc3)cn2c1 ; cells: VERO ; strain: 186 ; value: >100 µM
O=c1[nH]c(=O)n([C@@H]2O[C@H](CO)[C@@H](O)[C@@H]2O)cc1/C=C/I ; cells: HELF ; strain: UW-268 ; value: 4.2 µg/mL
Nc1nc2c(ncn2CC[C@H](O)CO)c(=O)[nH]1 ; cells: VERO ; strain: B4327 ; value: 53 µM
O=C(O)c1ccc2cc(-c3ccccc3)cn2c1 ; cells: VERO ; strain: 186 ; value: >100 µM
Cn1cc(C(=O)NCc2ccc(Cl)cc2)c(=O)c2cc(CN3CCOCC3)ccc21 ; cells: VERO ; value: 3.4 µM
CC(=O)OC[C@H]1[C@H](COC(C)=O)[C@@H](COC(C)=O)O[C@H]1n1cnc2c(N)ncnc21 ; cells: MEF ; strain: E-196 ; value: 227 µM
Nc1nc2c(ncn2CC(CO)CCO)c(=O)[nH]1 ; cells: VERO ; strain: 91075 (acyclovir-resistant) ; value: ≥250 µM
Cn1cc(C(=O)NCc2ccc(Cl)cc2)c(=O)c2cc(/C=C\CO)cc(F)c21 ; cells: VERO ; strain: 186 ; value: 2 µM
Nc1ncnc2c1ncn2[C@@H]1O[C@H](COP(=O)(O)O)[C@@H](O)[C@@H]1O ; cells: MEF ; strain: E-196 ; value: 29 µM
COc1ccc2nc3n[nH]c(C)c3c(SCc3ccco3)c2c1 ; cells: WI-38 ; value: 1.8 µg/mL
Cc1cn([C@@H]2O[C@H](CO)[C@@H](O)[C@@H]2F)c(=O)[nH]c1=O ; cells: HELF ; strain: HG-52 ; value: 0.007 µg/mL
Clc1ccc(-c2cc3ccccn3c2)cc1Cl ; cells: VERO ; strain: 186 ; value: >100 µM
Cc1cn([C@@H]2O[C@H](CO)[C@@H](O)[C@@H]2O)c(=O)[nH]c1=O ; cells: HELF ; strain: HG-52 ; value: 0.66 µg/mL
Nc1nc2c(ncn2CCCC(CO)CO)c(=O)[nH]1 ; cells: VERO ; strain: 72 ; value: 3.6 µM
O=C(O)CP(=O)(O)O ; cells: MEF ; strain: MS ; value: 15.8 µg/mL
Cn1cc(C(=O)NCc2ccc(Cl)cc2)c(=O)c2cc(CN3CCOCC3)ccc21 ; cells: HFF ; strain: Jensen (wild type) ; value: 5.2 µM
Nc1nc2c(ncn2C[C@]2(CO)C[C@H]2CO)c(=O)[nH]1 ; cells: MRC-5 ; strain: 186 (TK-) ; value: 78 µg/mL
Nc1nc2c(ncn2CC[C@@H](O)CO)c(=O)[nH]1 ; cells: VERO ; strain: 72 ; value: 4 µM
O=C(NCc1ccc(Cl)cc1)c1cn2c3c(cc(CN4CCOCC4)cc3c1=O)OC(c1cccnc1)C2 ; cells: HFF ; strain: L6262351 (WILD TYPE) ; value: >13 µM
Cc1cn([C@@H]2O[C@H](CO)[C@H]2CO)c(=O)[nH]c1=O ; cells: HFF ; strain: SR ; value: 3.6 µg/mL

Repeating the final 2 entries:

O=C(NCc1ccc(Cl)cc1)c1cn2c3c(cc(CN4CCOCC4)cc3c1=O)OC(c1cccnc1)C2 ; cells: HFF ; strain: L6262351 (WILD TYPE) ; value: >13 µM
Cc1cn([C@@H]2O[C@H](CO)[C@H]2CO)c(=O)[nH]c1=O ; cells: HFF ; strain: SR ; value: 3.6 µg/mL